Paper PMC6514670, “Field-Based Affinity Optimization of a Novel Azabicyclohexane Scaffold HIV-1 Entry Inhibitor” (Molecules, 2019)
Where two headings read alike, the source gives them in different places.

Test system: B41 SOSIP.664 trimer
Assay: Differential scanning calorimetry (thermostability of trimer with compound)
Parameters: species or system HIV-1
[1] = B41 SOSIP.664 0.25 mg/mL + 2 μg compound, 1 h room temperature, peak of highest intensity
[2] = B41 SOSIP.664 0.25 mg/mL + 2 μg compound, peak of second highest intensity
[3] = relative change of primary Tm from the inhibitor-free control

Row | Structure (SMILES) | Tm primary [1] | Tm secondary [2] | ΔTm [3] | Tm primary | Tm secondary | ΔTm
1 | COc1cnc(-n2cnc(C)n2)c2[nH]cc(C(=O)C(=O)N3CC4CN(C(=O)c5ccccc5)CC4C3)c12 (stereo not drawn) [SC11] | 66.6 °C | 59.4 °C | +7.8 °C |  |  | 
2 | COc1cnc(-n2cnc(C)n2)c2[nH]cc(C(=O)C(=O)NC3C4CN(C(=O)c5ccccc5)CC43)c12 (stereo not drawn) [SC28] | 60.0 °C | 69.5 °C | +1.2 °C |  |  | 
3 | COc1cnc(-n2cnc(C)n2)c2[nH]cc(C(=O)C(=O)N3CC(CCC(=O)c4ccccc4)C3)c12 [SC15] |  |  |  | 62.7 °C | 71.4 °C | +3.9 °C
4 | COc1cnc(-n2cnc(C)n2)c2[nH]cc(C(=O)C(=O)N3CC=C(CNC(=O)c4ccccc4)CC3)c12 [SC45] |  |  |  | 60.3 °C | 69.8 °C | +1.5 °C
